{"source": "paper PMC9104152", "about": "“Phosphoproteomics Unravel HBV Triggered Rewiring of Host Phosphosignaling Events” (International Journal of Molecular Sciences, 2022)", "molecules": {"B1": {"name": "Q8NHH9 1xPhospho [T/S/Y] (protein, UniProt Q8NHH9 1-583, looked up)", "Atlastin-2": "MAEGDEAARGQQPHQGLWRRRRTSDPSAAVNHVSSTTSLGENYEDDDLVNSDEVMKKPCPVQIVLAHEDDHNFELDEEALEQILLQEHIRDLNIVVVSVAGAFRKGKSFLLDFMLRYMYNKDSQSWIGGNNEPLTGFTWRGGCERETTGIQVWNEVFVIDRPNGTKVAVLLMDTQGAFDSQSTIKDCATVFALSTMTSSVQVYNLSQNIQEDDLQHLQLFTEYGRLAMEEIYQKPFQTLMFLIRDWSYPYEHSYGLEGGKQFLEKRLQVKQNQHEELQNVRKHIHNCFSNLGCFLLPHPGLKVATNPSFDGRLKDIDEDFKRELRNLVPLLLAPENLVEKEISGSKVTCRDLVEYFKAYIKIYQGEELPHPKSMLQATAEANNLAAVAGARDTYCKSMEQVCGGDKPYIAPSDLERKHLDLKEVAIKQFRSVKKMGGDEFCRRYQDQLEAEIEETYANFIKHNDGKNIFYAARTPATLFAVMFAMYIISGLTGFIGLNSIAVLCNLVMGLALIFLCTWAYVKYSGEFREIGTVIDQIAETLWEQVLKPLGDNLMEENIRQSVTNSIKAGLTDQVSHHARLKTD", "modifications": "phosphorylated"}, "B2": {"name": "P29374 1xPhospho [S] (protein, UniProt P29374 1-1257, looked up)", "AT-rich interactive …": "MKAADEPAYLTVGTDVSAKYRGAFCEAKIKTVKRLVKVKVLLKQDNTTQLVQDDQVKGPLRVGAIVETRTSDGSFQEAIISKLTDASWYTVVFDDGDERTLRRTSLCLKGERHFAESETLDQLPLTNPEHFGTPVIAKKTNRGRRSSLPVTEDEKEEESSEEEDEDKRRLNDELLGKVVSVVSATERTEWYPALVISPSCNDDITVKKDQCLVRSFIDSKFYSIARKDIKEVDILNLPESELSTKPGLQKASIFLKTRVVPDNWKMDISEILESSSSDDEDGPAEENDEEKEKEAKKTEEEVPEEELDPEERDNFLQQLYKFMEDRGTPINKPPVLGYKDLNLFKLFRLVYHQGGCDNIDSGAVWKQIYMDLGIPILNSAASYNVKTAYRKYLYGFEEYCRSANIQFRTVHHHEPKVKEEKKDLEESMEEALKLDQEMPLTEVKSEPEENIDSNSESEREEIELKSPRGRRRIARDVNSIKKEIEEEKTEDKLKDNDTENKDVDDDYETAEKKENELLLGRKNTPKQKEKKIKKQEDSDKDSDEEEEKSQEREETESKCDSEGEEDEEDMEPCLTGTKVKVKYGRGKTQKIYEASIKSTEIDDGEVLYLVHYYGWNVRYDEWVKADRIIWPLDKGGPKKKQKKKAKNKEDSEKDEKRDEERQKSKRGRPPLKSTLSSNMPYGLSKTANSEGKSDSCSSDSETEDALEKNLINEELSLKDELEKNENLNDDKLDEENPKISAHILKENDRTQMQPLETLKLEVGENEQIVQIFGNKMEKTEEVKKEAEKSPKGKGRRSKTKDLSLEIIKISSFGQNEAGSEPHIEAHSLELSSLDNKNFSSATEDEIDQCVKEKKLKRKILGQSSPEKKIRIENGMEMTNTVSQERTSDCIGSEGMKNLNFEQHFERENEGMPSLIAESNQCIQQLTSERFDSPAEETVNIPLKEDEDAMPLIGPETLVCHEVDLDDLDEKDKTSIEDVAVESSESNSLVSIPPALPPVVQHNFSVASPLTLSQDESRSVKSESDITIEVDSIAEESQEGLCERESANGFETNVASGTCSIIVQERESREKGQKRPSDGNSGLMAKKQKRTPKRTSAAAKNEKNGTGQSSDSEDLPVLDNSSKCTPVKHLNVSKPQKLARSPARISPHIKDGEKDKHREKHPNSSPRTYKWSFQLNELDNMNSTERISFLQEKLQEIRKYYMSLKSEVATIDRRRKRLKKKDREVSHAGASMSSASSDTGMSPSSSSPPQNVLAVECR", "modifications": "monophosphorylated"}, "B3": {"name": "Q9UPN9 1xPhospho [T/S] (protein, UniProt Q9UPN9 1-1127, looked up)", "E3 ubiquitin-protein ligase …": "MAENKGGGEAESGGGGSGSAPVTAGAAGPAAQEAEPPLTAVLVEEEEEEGGRAGAEGGAAGPDDGGVAAASSGSAQAASSPAASVGTGVAGGAVSTPAPAPASAPAPGPSAGPPPGPPASLLDTCAVCQQSLQSRREAEPKLLPCLHSFCLRCLPEPERQLSVPIPGGSNGDIQQVGVIRCPVCRQECRQIDLVDNYFVKDTSEAPSSSDEKSEQVCTSCEDNASAVGFCVECGEWLCKTCIEAHQRVKFTKDHLIRKKEDVSESVGASGQRPVFCPVHKQEQLKLFCETCDRLTCRDCQLLEHKEHRYQFLEEAFQNQKGAIENLLAKLLEKKNYVHFAATQVQNRIKEVNETNKRVEQEIKVAIFTLINEINKKGKSLLQQLENVTKERQMKLLQQQNDITGLSRQVKHVMNFTNWAIASGSSTALLYSKRLITFQLRHILKARCDPVPAANGAIRFHCDPTFWAKNVVNLGNLVIESKPAPGYTPNVVVGQVPPGTNHISKTPGQINLAQLRLQHMQQQVYAQKHQQLQQMRMQQPPAPVPTTTTTTQQHPRQAAPQMLQQQPPRLISVQTMQRGNMNCGAFQAHQMRLAQNAARIPGIPRHSGPQYSMMQPHLQRQHSNPGHAGPFPVVSVHNTTINPTSPTTATMANANRGPTSPSVTAIELIPSVTNPENLPSLPDIPPIQLEDAGSSSLDNLLSRYISGSHLPPQPTSTMNPSPGPSALSPGSSGLSNSHTPVRPPSTSSTGSRGSCGSSGRTAEKTSLSFKSDQVKVKQEPGTEDEICSFSGGVKQEKTEDGRRSACMLSSPESSLTPPLSTNLHLESELDALASLENHVKIEPADMNESCKQSGLSSLVNGKSPIRSLMHRSARIGGDGNNKDDDPNEDWCAVCQNGGDLLCCEKCPKVFHLTCHVPTLLSFPSGDWICTFCRDIGKPEVEYDCDNLQHSKKGKTAQGLSPVDQRKCERLLLYLYCHELSIEFQEPVPASIPNYYKIIKKPMDLSTVKKKLQKKHSQHYQIPDDFVADVRLIFKNCERFNEMMKVVQVYADTQEINLKADSEVAQAGKAVALYFEDKLTEIYSDRTFAPLPEFEQEEDDGEVTEDSDEDFIQPRRKRLKSDERPVHIK", "modifications": "phosphorylated"}, "B4": {"name": "O94874 1xPhospho [S458(100)] (protein, UniProt O94874 2-794, looked up)", "E3 UFM1-protein ligase 1": "ADAWEEIRRLAADFQRAQFAEATQRLSERNCIEIVNKLIAQKQLEVVHTLDGKEYITPAQISKEMRDELHVRGGRVNIVDLQQVINVDLIHIENRIGDIIKSEKHVQLVLGQLIDENYLDRLAEEVNDKLQESGQVTISELCKTYDLPGNFLTQALTQRLGRIISGHIDLDNRGVIFTEAFVARHKARIRGLFSAITRPTAVNSLISKYGFQEQLLYSVLEELVNSGRLRGTVVGGRQDKAVFVPDIYSRTQSTWVDSFFRQNGYLEFDALSRLGIPDAVSYIKKRYKTTQLLFLKAACVGQGLVDQVEASVEEAISSGTWVDIAPLLPTSLSVEDAAILLQQVMRAFSKQASTVVFSDTVVVSEKFINDCTELFRELMHQKAEKEMKNNPVHLITEEDLKQISTLESVSTSKKDKKDERRRKATEGSGSMRGGGGGNAREYKIKKVKKKGRKDDDSDDESQSSHTGKKKPEISFMFQDEIEDFLRKHIQDAPEEFISELAEYLIKPLNKTYLEVVRSVFMSSTTSASGTGRKRTIKDLQEEVSNLYNNIRLFEKGMKFFADDTQAALTKHLLKSVCTDITNLIFNFLASDLMMAVDDPAAITSEIRKKILSKLSEETKVALTKLHNSLNEKSIEDFISCLDSAAEACDIMVKRGDKKRERQILFQHRQALAEQLKVTEDPALILHLTSVLLFQFSTHSMLHAPGRCVPQIIAFLNSKIPEDQHALLVKYQGLVVKQLVSQSKKTGQGDYPLNNELDKEQEDVASTTRKELQELSSSIKDLVLKSRKSSVTEE", "modifications": "phosphorylated S458"}, "B5": {"name": "Q13263 1xPhospho [T541(100)] (protein, UniProt Q13263 2-835, looked up)", "Transcription intermediary …": "AASAAAASAAAASAASGSPGPGEGSAGGEKRSTAPSAAASASASAAASSPAGGGAEALELLEHCGVCRERLRPEREPRLLPCLHSACSACLGPAAPAAANSSGDGGAAGDGTVVDCPVCKQQCFSKDIVENYFMRDSGSKAATDAQDANQCCTSCEDNAPATSYCVECSEPLCETCVEAHQRVKYTKDHTVRSTGPAKSRDGERTVYCNVHKHEPLVLFCESCDTLTCRDCQLNAHKDHQYQFLEDAVRNQRKLLASLVKRLGDKHATLQKSTKEVRSSIRQVSDVQKRVQVDVKMAILQIMKELNKRGRVLVNDAQKVTEGQQERLERQHWTMTKIQKHQEHILRFASWALESDNNTALLLSKKLIYFQLHRALKMIVDPVEPHGEMKFQWDLNAWTKSAEAFGKIVAERPGTNSTGPAPMAPPRAPGPLSKQGSGSSQPMEVQEGYGFGSGDDPYSSAEPHVSGVKRSRSGEGEVSGLMRKVPRVSLERLDLDLTADSQPPVFKVFPGSTTEDYNLIVIERGAAAAATGQPGTAPAGTPGAPPLAGMAIVKEEETEAAIGAPPTATEGPETKPVLMALAEGPGAEGPRLASPSGSTSSGLEVVAPEGTSAPGGGPGTLDDSATICRVCQKPGDLVMCNQCEFCFHLDCHLPALQDVPGEEWSCSLCHVLPDLKEEDGSLSLDGADSTGVVAKLSPANQRKCERVLLALFCHEPCRPLHQLATDSTFSLDQPGGTLDLTLIRARLQEKLSPPYSSPQEFAQDVGRMFKQFNKLTEDKADVQSIIGLQRFFETRMNEAFGDTKFSAVLVEPPPMSLPGAGLSSQELSGGPGDGP", "modifications": "phosphorylated T541"}, "B6": {"name": "O15164 1xPhospho [S110(98.1)] (protein, UniProt O15164 1-1050, looked up)", "Transcription intermediary …": "MEVAVEKAVAAAAAASAAASGGPSAAPSGENEAESRQGPDSERGGEAARLNLLDTCAVCHQNIQSRAPKLLPCLHSFCQRCLPAPQRYLMLPAPMLGSAETPPPVPAPGSPVSGSSPFATQVGVIRCPVCSQECAERHIIDNFFVKDTTEVPSSTVEKSNQVCTSCEDNAEANGFCVECVEWLCKTCIRAHQRVKFTKDHTVRQKEEVSPEAVGVTSQRPVFCPFHKKEQLKLYCETCDKLTCRDCQLLEHKEHRYQFIEEAFQNQKVIIDTLITKLMEKTKYIKFTGNQIQNRIIEVNQNQKQVEQDIKVAIFTLMVEINKKGKALLHQLESLAKDHRMKLMQQQQEVAGLSKQLEHVMHFSKWAVSSGSSTALLYSKRLITYRLRHLLRARCDASPVTNNTIQFHCDPSFWAQNIINLGSLVIEDKESQPQMPKQNPVVEQNSQPPSGLSSNQLSKFPTQISLAQLRLQHMQQQVMAQRQQVQRRPAPVGLPNPRMQGPIQQPSISHQQPPPRLINFQNHSPKPNGPVLPPHPQQLRYPPNQNIPRQAIKPNPLQMAFLAQQAIKQWQISSGQGTPSTTNSTSSTPSSPTITSAAGYDGKAFGSPMIDLSSPVGGSYNLPSLPDIDCSSTIMLDNIVRKDTNIDHGQPRPPSNRTVQSPNSSVPSPGLAGPVTMTSVHPPIRSPSASSVGSRGSSGSSSKPAGADSTHKVPVVMLEPIRIKQENSGPPENYDFPVVIVKQESDEESRPQNANYPRSILTSLLLNSSQSSTSEETVLRSDAPDSTGDQPGLHQDNSSNGKSEWLDPSQKSPLHVGETRKEDDPNEDWCAVCQNGGELLCCEKCPKVFHLSCHVPTLTNFPSGEWICTFCRDLSKPEVEYDCDAPSHNSEKKKTEGLVKLTPIDKRKCERLLLFLYCHEMSLAFQDPVPLTVPDYYKIIKNPMDLSTIKKRLQEDYSMYSKPEDFVADFRLIFQNCAEFNEPDSEVANAGIKLENYFEELLKNLYPEKRFPKPEFRNESEDNKFSDDSDDDFVQPRKKRLKSIEERQLLK", "modifications": "phosphorylated S110"}}}
{"tested_on": "HepG2-NTCP cells", "experiment": "TMT-based phosphoproteome profiling of HBV-infected vs mock HepG2-NTCP (HBV/mock ratio)", "parameters": "species or system human", "details": "phosphosite abundance ratio of host protein, HBV-infected vs mock HepG2-NTCP, 7dpi, sheet Up-regulated"}
{"molecule": "B1", "HBV/mock": 1.431}
{"molecule": "B2", "HBV/mock": 1.396}
{"tested_on": "HepG2-NTCP cells", "experiment": "TMT-based phosphoproteome profiling of HBV-infected vs mock HepG2-NTCP (HBV/mock ratio)", "parameters": "species or system human", "details": "phosphosites of host proteins deregulated at 7dpi; sheet Up-regulated; HBV-infected vs mock HepG2-NTCP"}
{"molecule": "B3", "HBV/mock": 2.1075}
{"molecule": "B4", "HBV/mock": 1.4667}
{"molecule": "B5", "HBV/mock": 1.348}
{"molecule": "B6", "HBV/mock": 1.32}
